{"source": "patent US20090005313A1", "biological_target": "HV62, synthetic peptide corresponding to residues 33 to 94 of human VAMP-2 (human) (UniProt P63027)", "assay": "cell-based or functional assay"}
{"substance": "Un-nicked SC TeNT E234A (protease-deficient mutant)", "values": [{"measurement": "Initial rate of cleavage of HV62 (nmol. min^-1 mg^-1)", "value": "< 0.01"}]}
